The results in this text go back to article PMC6337631, “Effective Tetradentate Compound Complexes against Leishmania spp. that Act on Critical Enzymatic Pathways of These Parasites” (Molecules, 2018).

What all share (assay type): cell-based
In series [1] the test system is Leishmania braziliensis promastigote forms. Nature of the series: Promastigote test (extracellular forms), L. braziliensis. The note with it: for SI Leishmania braziliensis Promastigote Forms: IC50 macrophage / IC50 parasite form; for number of times that compound exceeds the reference drug SI, L. braziliensis Promastigote Forms: in brackets, vs Glucantime. How it is done:
(§1) Promastigote forms of three different Leishmania spp., L. donovani (MHOM/PE/84/LC26), L. infantum (MCAN/ES/2001/UCM-10) and L. braziliensis (MHOM/BR/1975/M2904), were cultured in vitro in Medium Trypanosomes Liquid (MTL) supplemented with 10% inactivated foetal calf serum (FCS) in an air atmosphere at 28 °C, in Roux flasks (Corning, Manassas, VA, USA) with a surface area of 75 cm^2, according to [33].
(§2) The compounds and the reference drug Glu were dissolved in DMSO (Panreac, Barcelona, Spain) and tested from 100 µM to 1 µM with 0.1% (v/v) DMSO final concentration in plates. Therefore, controls were prepared including 0.1% (v/v) of this component, as previously described.
(§3) Promastigote forms were collected in the exponential growth phase and seeded at 1 × 10^5 parasites/mL in 24-well microplates (Nunc, Naperville, IL, USA), after adding each compound at concentrations from 100 µM to 1 µM and cultured in 500 μL/well volumes at 28 °C. After 72 h incubation, the leishmanicidal activity was assessed using a Neubauer haemocytometric chamber in comparison with the control cultures. […] Each drug concentration was tested in triplicate in four separate determinations.

The test system of series [2] is Leishmania infantum promastigote forms. The series is described as follows: Promastigote test (extracellular forms), L. infantum. The settings on record: for SI Leishmania infantum Promastigote Forms: IC50 macrophage / IC50 parasite form; for number of times that compound exceeds the reference drug SI, L. infantum Promastigote Forms: in brackets, vs Glucantime. As for the experimental part:
as §1, §2, §3

Series [3] has as its system Leishmania braziliensis amastigote forms. The series is described as follows: Amastigote test (intracellular forms in J774.2 macrophages), L. braziliensis. The note with it: for SI Leishmania braziliensis Amastigote Forms: IC50 macrophage / IC50 parasite form; for number of times that compound exceeds the reference drug SI, L. braziliensis Amastigote Forms: in brackets, vs Glucantime. How it is done:
as §1, §2
(§4) J774.2 macrophages were grown and seeded at a density of 1 × 10^4 cells/well in 24-well microplates (Nunc) with rounded coverslips on the bottom and cultured for 48 h in humidified 95% air, 5% CO2 atmosphere at 37 °C in Minimal Essential Medium (MEM) with 2 mM glutamine and 20% (v/v) inactivated FCS. Adherent macrophages were infected with metacyclic promastigotes in the stationary growth phase of L. donovani, L. infantum and L. braziliensis at a multiplicity of infection (MOI) ratio of 1:10 and maintained for 24 h. Non-phagocytosed parasites were removed by washing, and after addition of the testing compounds at concentrations from 100 µM to 1 µM, cultured in 500 μL/well volumes. Control cultures were also included. After 72 h incubation, leishmanicidal activity was assessed based on the number of amastigotes in treated and untreated cultures in methanol-fixed and Giemsa-stained preparations by analyzing 500 host cells distributed in randomly chosen microscopic fields. The leishmanicidal effect was calculated as described to determine the leishmanicidal activity in the promastigote forms. Each drug concentration was tested in triplicate in four separate determinations.

For series [4], the system named is Leishmania infantum amastigote forms. The series is described as follows: Amastigote test (intracellular forms in J774.2 macrophages), L. infantum. The settings on record: for SI Leishmania infantum Amastigote Forms: IC50 macrophage / IC50 parasite form; for number of times that compound exceeds the reference drug SI, L. infantum Amastigote Forms: in brackets, vs Glucantime. How it is done:
as §1, §2, §4

In series [5] the test system is Leishmania donovani promastigote forms. Nature of the series: Promastigote test (extracellular forms), L. donovani. The note with it: for SI Leishmania donovani Promastigote Forms: IC50 macrophage / IC50 parasite form; for number of times that compound exceeds the reference drug SI, L. donovani Promastigote Forms: in brackets, vs Glucantime. As for the experimental part: as §1, §2, §3

Series [6] concerns Leishmania donovani amastigote forms. The series is described as follows: Amastigote test (intracellular forms in J774.2 macrophages), L. donovani. The note with it: for SI Leishmania donovani Amastigote Forms: IC50 macrophage / IC50 parasite form; for number of times that compound exceeds the reference drug SI, L. donovani Amastigote Forms: in brackets, vs Glucantime. How it is done: as §1, §2, §4

As to `CN1CCN(C)CCN(Cc2ccccn2)CC1.O=S(=O)([O-])C(F)(F)F.O=S(=O)([O-])C(F)(F)F.[Fe+2]` [Compound 1], in series [1], the “SI Leishmania braziliensis Promastigote Forms” value is recorded as 1.7 and the “number of times that compound exceeds the reference drug SI, L. braziliensis Promastigote Forms” value (shortened to “number … L. braziliensis Promastigote Forms”) amounted to 3. In series [2], the “SI Leishmania infantum Promastigote Forms” value was 2.1 and the “number of times that compound exceeds the reference drug SI, L. infantum Promastigote Forms” value (“number … L. infantum Promastigote Forms” below) is reported as 3. Further, in series [3], the “SI Leishmania braziliensis Amastigote Forms” value stood at 1.8 and the “number of times that compound exceeds the reference drug SI, L. braziliensis Amastigote Forms” value (from here on “number … L. braziliensis Amastigote Forms”) was determined as 4. In series [4], the “SI Leishmania infantum Amastigote Forms” value was 1.8 and the “number of times that compound exceeds the reference drug SI, L. infantum Amastigote Forms” value (from here on “number … L. infantum Amastigote Forms”) came out at 3. In addition, in series [5], the “SI Leishmania donovani Promastigote Forms” value is recorded as 1.3 and the “number of times that compound exceeds the reference drug SI, L. donovani Promastigote Forms” value (“number … L. donovani Promastigote Forms” for short) is listed as 2. Besides, in series [6], the “SI Leishmania donovani Amastigote Forms” value is listed as 3.0 and the “number of times that compound exceeds the reference drug SI, L. donovani Amastigote Forms” value (shortened to “number … L. donovani Amastigote Forms”) is listed as 6.

As to `CN1CCN(C)CCN(Cc2ccccn2)CC1.O=S(=O)([O-])C(F)(F)F.O=S(=O)([O-])C(F)(F)F.[Mn+2]` [Compound 3], in series [1], the “SI Leishmania braziliensis Promastigote Forms” value was 10.6 and the “number … L. braziliensis Promastigote Forms” value worked out at 18. In series [2], the “SI Leishmania infantum Promastigote Forms” value is 11.6 and the “number … L. infantum Promastigote Forms” value was determined as 14. In addition, in series [3], the “SI Leishmania braziliensis Amastigote Forms” value is given as 11.3 and the “number … L. braziliensis Amastigote Forms” value amounted to 23. In series [4], the “SI Leishmania infantum Amastigote Forms” value is listed as 26.6 and the “number … L. infantum Amastigote Forms” value is on record as 44. In addition, in series [5], the “SI Leishmania donovani Promastigote Forms” value is 3.4 and the “number … L. donovani Promastigote Forms” value came out at 6. Also, in series [6], the “SI Leishmania donovani Amastigote Forms” value came out at 8.4 and the “number … L. donovani Amastigote Forms” value was found to be 17.

With `CN(C)c1ccnc(CN2CCC[C@H]2[C@@H]2CCCN2Cc2cc(N(C)C)ccn2)c1` [Compound 7], in series [1], the “SI Leishmania braziliensis Promastigote Forms” value stood at 14.7 and the “number … L. braziliensis Promastigote Forms” value was determined as 25. In series [2], the “SI Leishmania infantum Promastigote Forms” value is given as 14.0 and the “number … L. infantum Promastigote Forms” value is 17. In series [3], the “SI Leishmania braziliensis Amastigote Forms” value amounted to 20.2 and the “number … L. braziliensis Amastigote Forms” value is 40. Moreover, in series [4], the “SI Leishmania infantum Amastigote Forms” value is given as 19.1 and the “number … L. infantum Amastigote Forms” value turned out to be 32. Also, in series [5], the “SI Leishmania donovani Promastigote Forms” value came to 21.2 and the “number … L. donovani Promastigote Forms” value is reported as 35. Moreover, in series [6], the “SI Leishmania donovani Amastigote Forms” value amounted to 156.5 and the “number … L. donovani Amastigote Forms” value was 313.

For `CN(Cc1ccccn1)C1CCCCC1N(C)Cc1ccccn1` (stereo not shown) [Compound 8], in series [1], the “SI Leishmania braziliensis Promastigote Forms” value is listed as 3.6 and the “number … L. braziliensis Promastigote Forms” value came to 6. Further, in series [2], the “SI Leishmania infantum Promastigote Forms” value is on record as 3.2 and the “number … L. infantum Promastigote Forms” value turned out to be 4. For the same compound, in series [3], the “SI Leishmania braziliensis Amastigote Forms” value was 12.4 and the “number … L. braziliensis Amastigote Forms” value was determined as 25. For the same compound, in series [4], the “SI Leishmania infantum Amastigote Forms” value was found to be 11.9 and the “number … L. infantum Amastigote Forms” value is 20. Also, in series [5], the “SI Leishmania donovani Promastigote Forms” value was found to be 8.5 and the “number … L. donovani Promastigote Forms” value turned out to be 14. Moreover, in series [6], the “SI Leishmania donovani Amastigote Forms” value was 141.2 and the “number … L. donovani Amastigote Forms” value came to 282.

Turning to `CN1CCN(C)CCN(Cc2ccccn2)CC1` [Compound 9], in series [1], the “SI Leishmania braziliensis Promastigote Forms” value came out at 1.9 and the “number … L. braziliensis Promastigote Forms” value stood at 3. In series [2], the “SI Leishmania infantum Promastigote Forms” value is recorded as 1.4 and the “number … L. infantum Promastigote Forms” value is given as 2. In series [3], the “SI Leishmania braziliensis Amastigote Forms” value is given as 3.3 and the “number … L. braziliensis Amastigote Forms” value is reported as 7. For the same compound, in series [4], the “SI Leishmania infantum Amastigote Forms” value is listed as 3.0 and the “number … L. infantum Amastigote Forms” value came to 5. In series [5], the “SI Leishmania donovani Promastigote Forms” value is reported as 3.4 and the “number … L. donovani Promastigote Forms” value amounted to 6. Besides, in series [6], the “SI Leishmania donovani Amastigote Forms” value came to 6.9 and the “number … L. donovani Amastigote Forms” value is recorded as 14.

For the compound `c1ccc(CN2CCN(Cc3ccccn3)CCN(Cc3ccccn3)CC2)nc1` [Compound 10], in series [1], the “SI Leishmania braziliensis Promastigote Forms” value was determined as 22.9 and the “number … L. braziliensis Promastigote Forms” value worked out at 38. Moreover, in series [2], the “SI Leishmania infantum Promastigote Forms” value came out at 48.5 and the “number … L. infantum Promastigote Forms” value is on record as 61. Also, in series [3], the “SI Leishmania braziliensis Amastigote Forms” value is 10.6 and the “number … L. braziliensis Amastigote Forms” value is 21. For the same compound, in series [4], the “SI Leishmania infantum Amastigote Forms” value turned out to be 12.1 and the “number … L. infantum Amastigote Forms” value was 20. For the same compound, in series [5], the “SI Leishmania donovani Promastigote Forms” value is given as 6.8 and the “number … L. donovani Promastigote Forms” value was determined as 11. Further, in series [6], the “SI Leishmania donovani Amastigote Forms” value is recorded as 10.9 and the “number … L. donovani Amastigote Forms” value turned out to be 22.

As for `CN1CCN(C)CCN(CCN2CCN(C)CCN(C)CC2)CC1` [Compound 11, TACN2], in series [1], the “SI Leishmania braziliensis Promastigote Forms” value was 1.2 and the “number … L. braziliensis Promastigote Forms” value turned out to be 2. In series [2], the “SI Leishmania infantum Promastigote Forms” value is 0.9 and the “number … L. infantum Promastigote Forms” value is 1. In series [4], the “SI Leishmania infantum Amastigote Forms” value is on record as 2.2 and the “number … L. infantum Amastigote Forms” value worked out at 4. Besides, in series [5], the “SI Leishmania donovani Promastigote Forms” value was found to be 2.5 and the “number … L. donovani Promastigote Forms” value is given as 4. In addition, in series [6], the “SI Leishmania donovani Amastigote Forms” value stood at 3.8 and the “number … L. donovani Amastigote Forms” value was 8.

For “[Fe^II2(TACN2)(CH3CN)6](ClO4)4 [Compound 2]”, in series [1], the “SI Leishmania braziliensis Promastigote Forms” value is reported as 2.8 and the “number … L. braziliensis Promastigote Forms” value amounted to 5. In series [2], the “SI Leishmania infantum Promastigote Forms” value is given as 2.0 and the “number … L. infantum Promastigote Forms” value is 2. In addition, in series [3], the “SI Leishmania braziliensis Amastigote Forms” value is 8.4 and the “number … L. braziliensis Amastigote Forms” value worked out at 17. For the same compound, in series [4], the “SI Leishmania infantum Amastigote Forms” value turned out to be 1.8 and the “number … L. infantum Amastigote Forms” value was found to be 3. In addition, in series [5], the “SI Leishmania donovani Promastigote Forms” value worked out at 5.4 and the “number … L. donovani Promastigote Forms” value amounted to 9. Further, in series [6], the “SI Leishmania donovani Amastigote Forms” value is on record as 6.5 and the “number … L. donovani Amastigote Forms” value was determined as 13.

As for “meglumine antimoniate [Glucantime, reference compound]”, in series [1], the “SI Leishmania braziliensis Promastigote Forms” value was 0.6. For the same compound, in series [2], the “SI Leishmania infantum Promastigote Forms” value came out at 0.8. The “SI Leishmania braziliensis Amastigote Forms” value in series [3] was determined as 0.5. Also, the “SI Leishmania infantum Amastigote Forms” value in series [4] was 0.6. Also, in series [5], the “SI Leishmania donovani Promastigote Forms” value is given as 0.6. Besides, the “SI Leishmania donovani Amastigote Forms” value in series [6] is recorded as 0.5.
